{
  "sequences": {"note": "Sequences of proteins named here, by UniProt entry; tags and fusion partners are left off.", "UniProt P9WH09, whole entry, looked up": "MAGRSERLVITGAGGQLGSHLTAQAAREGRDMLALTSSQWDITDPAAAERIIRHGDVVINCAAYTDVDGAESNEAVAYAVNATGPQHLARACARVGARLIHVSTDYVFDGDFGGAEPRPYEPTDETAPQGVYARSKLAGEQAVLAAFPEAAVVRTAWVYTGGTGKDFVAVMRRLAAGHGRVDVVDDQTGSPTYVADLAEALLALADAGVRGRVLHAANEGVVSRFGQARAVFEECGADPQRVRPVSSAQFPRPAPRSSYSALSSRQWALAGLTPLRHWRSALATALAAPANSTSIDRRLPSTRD", "UniProt P9WH11, whole entry, looked up": "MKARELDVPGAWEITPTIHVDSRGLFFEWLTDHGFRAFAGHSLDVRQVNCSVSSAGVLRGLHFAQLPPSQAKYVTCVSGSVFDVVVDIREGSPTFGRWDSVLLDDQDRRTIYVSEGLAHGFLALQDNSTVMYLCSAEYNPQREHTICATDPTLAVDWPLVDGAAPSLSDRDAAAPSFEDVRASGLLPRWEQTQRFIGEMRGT"},
  "source": "PubChem BioAssay AID1533",
  "about": "(PCMD, 2009)",
  "note": "This is a selection; strong and weak results do not stand in their true shares. Activity calls are given as the source filed them. No stated cut-off is given here; in the data, active means inhibition mostly above about 34% (no sharp cut-off); inconclusive means no clear call, values can overlap the other calls; inactive means mostly below about 22%.",
  "data": [
    {"molecular_target": "dTDP-4-dehydrorhamnose reductase (Mycobacterium tuberculosis (strain ATCC 25618 / H37Rv)) + dTDP-4-dehydrorhamnose 3,5-epimerase (Mycobacterium tuberculosis (strain ATCC 25618 / H37Rv)) (UniProt P9WH09+P9WH11)", "assay": "M. tuberculosis RmlC/RmlD coupled enzyme inhibitors, primary screen, biochemical, compound mixtures, 384-well, from 1536-well plates (AID 1533)", "details": "RmlC+RmlD coupled enzyme assay, percent inhibition; primary screen in compound mixtures; at 3.6 µM; stronger effect = higher value", "values": [
      {"smiles": "CC(C)c1ccc(NC2CCN(C(=O)OC(C)(C)C)CC2)cc1", "inhibition": "inactive: 15.8%"},
      {"smiles": "COc1ccc(CN(CCCl)CCCl)cc1Cl", "inhibition": "inactive: 12.5%"},
      {"smiles": "CN(C)c1cccc(C(=O)NCC2(N3CCCCC3)CCCCC2)c1", "inhibition": "inactive: 3.48%"},
      {"smiles": "O=C(NCC1(N2CCOCC2)CCCCC1)c1cc(=O)[nH]c2ccccc12", "inhibition": "inactive: -3.66%"},
      {"smiles": "COc1ccc(NC2CCN(C(=O)OC(C)(C)C)CC2)cc1", "inhibition": "inactive: -2.26%"},
      {"smiles": "CN1CCN(CCOC(=O)C(O)(c2ccccc2)c2ccccc2)CC1", "inhibition": "inactive: -8.5%"},
      {"smiles": "N#CC1(Nc2ccccc2)CCN(CCc2ccccc2)CC1", "inhibition": "inactive: -2.4%"},
      {"smiles": "O=C(NCC1(N2CCCCC2)CCCCC1)c1cccc([N+](=O)[O-])c1", "inhibition": "inactive: 2.01%"},
      {"smiles": "Cc1ccc(OCC(C)C)c(CN(CCCl)CCCl)c1", "inhibition": "inactive: 7.22%"},
      {"smiles": "COc1ccc(NC2CCN(CCc3ccccc3)CC2)c(OC)c1", "inhibition": "inactive: -4.41%"},
      {"smiles": "CCOc1ccc(C)cc1CN(CCCl)CCCl", "inhibition": "inactive: 7.34%"},
      {"smiles": "O=C(OC1CN2CCC1CC2)C1c2ccccc2Oc2ccccc21", "note": "(stereo unspecified)", "inhibition": "inactive: 4.03%"},
      {"smiles": "N#CC1(Nc2ccccc2)CCN(Cc2ccccc2)CC1", "inhibition": "inactive: -7.31%"},
      {"smiles": "CCOC(=O)N1CCC(Nc2ccc(OC)cc2)CC1", "inhibition": "inactive: 3.76%"},
      {"smiles": "O=C(NCC1(N2CCOCC2)CCCCC1)c1cc2ccccc2o1", "inhibition": "inactive: -6.42%"},
      {"smiles": "COc1ccc(C(=O)NCC2(N3CCCCC3)CCCCC2)c(OC)c1OC", "inhibition": "inactive: 3.63%"},
      {"smiles": "CCCOc1ccc(C)cc1CN(CCCl)CCCl", "inhibition": "inactive: 10.8%"},
      {"smiles": "COc1cc(OC)cc(C(=O)NCC2(N3CCOCC3)CCCCC2)c1", "inhibition": "inactive: -9.14%"},
      {"smiles": "CCC(CO)(C(=O)OC1CN2CCC1CC2)c1ccccc1", "note": "(stereo unspecified)", "inhibition": "inactive: 16.6%"},
      {"smiles": "CC(C)(C)OC(=O)N1CCC(Nc2ccccc2)CC1", "inhibition": "inactive: 4.7%"},
      {"smiles": "CCOc1ncccc1C(=O)NCC1(N2CCOCC2)CCCCC1", "inhibition": "inactive: 11.9%"},
      {"smiles": "CN(C)c1ccc(C(=O)NCC2(N3CCCCC3)CCCCC2)cc1", "inhibition": "inactive: 16.1%"},
      {"smiles": "N#Cc1ccc(C(=O)NCC2(N3CCCCC3)CCCCC2)cc1", "inhibition": "inactive: 10.6%"},
      {"smiles": "O=C(OC1CN2CCC1CC2)C1c2ccccc2C=Cc2ccccc21", "note": "(stereo unspecified)", "inhibition": "inactive: -10.5%"},
      {"smiles": "N/C(=N\\O)c1c(N)no[n+]1[O-]", "inhibition": "inactive: 3.81%"},
      {"smiles": "COc1ccc(C(=O)NCC2(N3CCOCC3)CCCCC2)cc1OC", "inhibition": "inactive: -14.7%"}
    ]}
  ]
}
